# Values from PubChem BioAssay AID504761 (Drosophila RNAi Screening Center, 2011).
# Assay: 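Insect host genes that dengue virus relies on to spread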 (primary screen)
# Cells: D.Mel-2 cells from Drosophila
# Reagent: long dsRNA against Drosophila genes
# Conditions: infection with dengue virus type 2; dose and infection time not stated
# Read-out: 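Cells stained for dengue envelope protein and imaged; percent of infected cells per well on duplicate plates, ranked by infection, with stained nuclei counted for cell number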
# Reading the numbers: infection score: higher = more virus-infected cells
# Rule for the call: 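Very low infection ranking in both replicate wells (chance probability at most 0.065), then a retest showing infection dropped 1.5-fold or more at p below 0.05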
# Calls: active = confirmed: knock-down lowers infection; inactive = not picked or not confirmed
# The screen tested about 22,000 reagents; this is a random part of those that have a named target and a result. Of all reagents, 116 (0.52%) are marked active. 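Calls depend on retest data that are not deposited; infection was ranked per plate without normalising between plates; the unit of the infection score is not given.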 Names joined by + are all predicted targets of the reagent. Further read-outs or replicates are left out here. Reagent sequences are not shown. Not given: the amount of reagent, the time to read-out.
target,amplicon,"infection score, replicate 1","infection score, replicate 2",Outcome
CG33341 (GeneID 2768683),DRSC22887,2.46,19.3,inactive
CG33341 (GeneID 2768683),DRSC24893,11.6,7.49,inactive
CG9449 (GeneID 40117),DRSC11073,2.26,6.42,inactive
CG9449 (GeneID 40117),DRSC25691,3.32,11.8,inactive
CG15814 (GeneID 32765),DRSC19730,2.59,2.66,inactive
dunk (GeneID 4379900),DRSC36514,0.55,15.3,inactive
dunk (GeneID 4379900),DRSC36515,2.43,5.73,inactive
CG34370 (GeneID 5740565),DRSC03913,3.76,1.54,inactive
CG34370 (GeneID 5740565),DRSC04142,1.45,4.88,inactive
CG34370 (GeneID 5740565),DRSC04143,10.5,7.71,inactive
CG34370 (GeneID 5740565),DRSC04144,2.94,8.53,inactive
CG34370 (GeneID 5740565),DRSC26263,8.94,2.97,inactive
CG11382 (GeneID 31069),DRSC18624,0.26,4.3,inactive
ham (GeneID 35135),DRSC02070,2.26,6.67,inactive
ham (GeneID 35135),DRSC02512,2.82,8.01,inactive
ham (GeneID 35135),DRSC02513,0.95,3.04,inactive
ham (GeneID 35135),DRSC27582,1.72,0.55,inactive
stmA (GeneID 35865),DRSC07593,7.56,8.6,inactive
stmA (GeneID 35865),DRSC22179,4.28,3.1,inactive
Or19a (GeneID 59214),DRSC20684,3.41,0.83,inactive
Leash (GeneID 41320),DRSC15617,4.66,3.6,inactive
Leash (GeneID 41320),DRSC28712,21.4,13.1,inactive
CCT5 (GeneID 36308),DRSC07357,23.4,13,inactive
CCT5 (GeneID 36308),DRSC26229,5.65,5.83,inactive
Moca-cyp (GeneID 43374),DRSC15364,10.4,28.1,inactive
Moca-cyp (GeneID 43374),DRSC25515,4.86,6.06,inactive
CG9973 (retired record) (GeneID 38349),DRSC08646,1.31,4.41,inactive
CG9973 (retired record) (GeneID 38349),DRSC26922,4.46,4.65,inactive
CG14625 (GeneID 31066),DRSC18633,1.82,6,inactive
CG14625 (GeneID 31066),DRSC25191,3.04,4.87,inactive
Gpo2 (GeneID 35689),DRSC06822,7.45,11.5,inactive

The list goes on, starting with the last 10 of the part before.
target,amplicon,"infection score, replicate 1","infection score, replicate 2",Outcome
Leash (GeneID 41320),DRSC28712,21.4,13.1,inactive
CCT5 (GeneID 36308),DRSC07357,23.4,13,inactive
CCT5 (GeneID 36308),DRSC26229,5.65,5.83,inactive
Moca-cyp (GeneID 43374),DRSC15364,10.4,28.1,inactive
Moca-cyp (GeneID 43374),DRSC25515,4.86,6.06,inactive
CG9973 (retired record) (GeneID 38349),DRSC08646,1.31,4.41,inactive
CG9973 (retired record) (GeneID 38349),DRSC26922,4.46,4.65,inactive
CG14625 (GeneID 31066),DRSC18633,1.82,6,inactive
CG14625 (GeneID 31066),DRSC25191,3.04,4.87,inactive
Gpo2 (GeneID 35689),DRSC06822,7.45,11.5,inactive
ValRS-m (GeneID 39023),DRSC10535,2.56,6.5,inactive
sesB (GeneID 32007),DRSC20371,4.67,5.28,inactive
sesB (GeneID 32007),DRSC29874,38,36.3,inactive
Abl (GeneID 45821),DRSC09661,1.34,2.03,inactive
Abl (GeneID 45821),DRSC23306,5.39,9.95,inactive
CG13177 (GeneID 5740215),DRSC06303,2.34,6.84,inactive
Polr3I (GeneID 32678),DRSC19922,3.25,2.51,inactive
CG13038 (GeneID 50268),DRSC09919,3.62,11.8,inactive
CG10516 (GeneID 39738),DRSC09738,0.7,3.23,inactive
CG34234 + Dh44-R2,DRSC07278,10.9,6.27,inactive
CG5162 (GeneID 32709),DRSC19935,4.26,9.04,inactive
CG12084 (GeneID 192509),DRSC08247,11.4,9.83,inactive
CG12084 (GeneID 192509),DRSC26814,6.66,6.46,inactive
oxt (GeneID 38288),DRSC08522,3.8,3.65,inactive
bol (GeneID 39049),DRSC08964,4.87,2.35,active
bol (GeneID 39049),DRSC10444,2.12,3.64,inactive
bol (GeneID 39049),DRSC11329,1.22,1.47,inactive
bol (GeneID 39049),DRSC26869,6.5,7.32,inactive
CG17751 (GeneID 42336),DRSC15261,2.26,2.71,inactive
CG17751 (GeneID 42336),DRSC22837,1.27,8.9,inactive
CG17751 (GeneID 42336),DRSC24497,2.22,4.5,inactive
Mtpbeta (GeneID 37784),DRSC04663,11.6,17.2,inactive
Spn53F (GeneID 36931),DRSC06022,10,10.5,inactive
CG11456 (GeneID 40309),DRSC11665,11.3,5.57,inactive
galla-2 (GeneID 39221),DRSC10936,13.6,,inactive
galla-2 (GeneID 39221),DRSC21949,5.62,1.01,inactive
CG10979 (GeneID 40720),DRSC12153,6.03,21.7,inactive
CG14219 (GeneID 32951),DRSC19576,4.63,1.18,inactive
CG14219 (GeneID 32951),DRSC26450,2.23,4.32,inactive
tws (GeneID 47877),DRSC12767,4.64,6.61,inactive
tws (GeneID 47877),DRSC17092,16.5,35.4,inactive
tws (GeneID 47877),DRSC27776,18.2,8.96,inactive
NimB1 (GeneID 34813),DRSC01880,18.9,7.98,inactive
wcd (GeneID 36831),DRSC07051,16.8,14.8,inactive
Usp8 (GeneID 42509),DRSC15876,14.8,4.47,inactive
CG30043 (GeneID 246412),DRSC06285,15.1,7.26,inactive
CG14275 (GeneID 34144),DRSC02379,13.1,8.65,inactive
CG14275 (GeneID 34144),DRSC27588,1.46,3.97,inactive
Rad23 (GeneID 43785),DRSC17167,4.82,1.17,inactive
PheRS-m (GeneID 36547),DRSC05915,32.6,35.5,inactive
Gr28b (GeneID 117496),DRSC02291,2.89,4.47,inactive
Gr28b (GeneID 117496),DRSC02292,5.08,6.93,inactive
Gr28b (GeneID 117496),DRSC29459,22.3,1.95,inactive
